Results taken from patent US20230272054A1, “COMBINATION THERAPIES FOR THE TREATMENT AND PREVENTION OF BIOFILMS” (priority 2020, published 2023).

Legend:
macrophages = assay: Phagocytosis assay, pHrodo red E. coli bioparticles; conditions: 5 μg/ml protein 2 h, then pHrodo red E. coli bioparticles 2 h
B. cenocepacia = assay: Murine model of lung infection by B. cenocepacia, bacterial burden; conditions: 10^7 CFU i.t.; for bacterial burden within the lungs (BAL CFU), treatment: 0.2 nmol i.t. at 24 hpi, 72 hpi; for bacterial burden within the lungs (BAL CFU), prevention: 0.2 nmol i.t. at time of challenge, 18 hpi
UPEC biofilms = conditions: 24 h UPEC biofilms, rHMGB1 200 nM, 16 h
NTHI biofilms = NTHI biofilms incubated with rHMGB1 alone or with antibiotics, planktonic and biofilm CFU; conditions: 24 h NTHI biofilms, rHMGB1 200 nM alone, 16 h

| Molecule | phagocytic capacity of macrophages (macrophages) | bacterial burden within the lungs (BAL CFU), treatment (B. cenocepacia) | bacterial burden within the lungs (BAL CFU), prevention (B. cenocepacia) | bacteria in the planktonic state (UPEC biofilms) | shift of NTHI from biofilm-residence into the planktonic state (NTHI biofilms) |
| --- | --- | --- | --- | --- | --- |
| rHMGB1: recombinant HMGB1 derived from a human, expressed and purified in E. coli, SEQ ID NO: 51; comparator to mHMGB1 (protein, listed as Homo sapiens) MGKGDPKKPRGKMSSYAFFVQTCREEHKKKHPDASVNFSEFSKKCSERWKTMSAKEKGKFEDMAKADKARYEREMKTYIPPKGETKKKFKDPNAPKRPPSAFFLFCSEYRPKIKGEHPGLSIGDVAKKLGEMWNNTAADDKQPYEKKAAKLKEKYEKDIAAYRAKGKPDAAKKGVVKAEKSKKKKEEEEGEEDEEDEEEEEDEEDEDEEEDDDDE | slight reduction in phagocytosis | significantly facilitated the clearance of B. cenocepacia from the lungs | significantly facilitated the clearance of B. cenocepacia from the lungs | induced the partitioning of bacteria from biofilm residence into the planktonic state | induced a shift of bacteria from biofilm-residence into the planktonic state |
| mHMGB1: recombinant human HMGB1 with engineered single amino acid mutation C45S, SEQ ID NO: 52 (protein, mHMGB1 (C45S)) MGKGDPKKPRGKMSSYAFFVQTCREEHKKKHPDASVNFSEFSKKSSERWKTMSAKEKGKFEDMAKADKARYEREMKTYIPPKGETKKKFKDPNAPKRPPSAFFLFCSEYRPKIKGEHPGLSIGDVAKKLGEMWNNTAADDKQPYEKKAAKLKEKYEKDIAAYRAKGKPDAAKKGVVKAEKSKKKKEEEEGEEDEEDEEEEEDEEDEDEEEDDDDE | – | significantly facilitated the clearance of B. cenocepacia from the lungs | significantly facilitated the clearance of B. cenocepacia from the lungs | – | – |
